A mixed list of measured activities; the numbers were collected in NIAID ChemDB.

Common to all: tests in culture; organism: Aspergillus flavus

Blank or dashed fields: not listed here. Zone: diameter of growth inhibition. Conditions beyond the fields shown may differ between rows. A number after MIC or MFC names an inhibition level or a share of isolates.

structure | read by | strain or isolate | measure | tested at | value
O=C(O)/C=C/c1ccc(O)cc1 | agar | - | MIC50 | - | >1000 µg/mL
Cc1ccc2nc(Cl)c(CNc3cccc(Cl)c3)cc2c1 | agar diffusion | MTCC 277 | zone | 200 µg/mL | 10.56 mm
COc1cccc(OC)c1O | agar | - | MIC100 | - | >1000 µg/mL
CCCCc1nc(Cl)c(-c2cc(-c3ccc(OC)cc3)nc3c2C(=O)c2ccccc2-3)n1Cc1ccccc1 | agar diffusion | MTCC 8188 | zone | 10 µg/disc | 6 mm
Cc1ccc2nc(Cl)c(CNc3ccc(F)cc3)cc2c1 | agar diffusion | MTCC 277 | zone | 200 µg/mL | 10.93 mm
C=CCc1ccc(O)c(OC)c1 | agar | - | MIC100 | - | 478 µg/mL
CCCCc1nc(Cl)c(-c2cc(-c3ccc4oc5ccccc5c4c3)nc3c2C(=O)c2ccccc2-3)n1Cc1ccccc1 | agar diffusion | MTCC 8188 | zone | 10 µg/disc | 7 mm
C=CCc1ccc(O)c(OC)c1 | broth dilution | NRRL 501 | MIC | - | 160 µg/mL
Cc1ccc(NCc2cc3cc(C)ccc3nc2Cl)cc1 | agar diffusion | MTCC 277 | zone | 200 µg/mL | 8.33 mm
Cc1cc(O)c(C(=O)/C=C/c2ccc(O)cc2)c(=O)o1 | agar diffusion | - | zone | 250 µg/disc | 14 mm
CCCCc1nc(Cl)c(-c2cc(-c3cc(OC)c(OC)c(OC)c3)nc3c2C(=O)c2ccccc2-3)n1Cc1ccccc1 | agar diffusion | MTCC 8188 | zone | 10 µg/disc | 6 mm
Cc1ccc2nc(Cl)c(CNc3ccc(F)c(Cl)c3)cc2c1 | agar diffusion | MTCC 277 | zone | 200 µg/mL | 15.83 mm
COc1cc(C(C)=O)ccc1O | agar | - | MIC100 | - | >1000 µg/mL
CCCCc1nc(Cl)c(-c2cc(-c3cn(S(=O)(=O)c4ccc(C)cc4)c4ccccc34)nc3c2C(=O)c2ccccc2-3)n1Cc1ccccc1 | agar diffusion | MTCC 8188 | zone | 10 µg/disc | 11 mm

The first 2 rows once more:

O=C(O)/C=C/c1ccc(O)cc1 ; read by: agar ; measure: MIC50 ; value: >1000 µg/mL
Cc1ccc2nc(Cl)c(CNc3cccc(Cl)c3)cc2c1 ; read by: agar diffusion ; strain or isolate: MTCC 277 ; measure: zone ; tested at: 200 µg/mL ; value: 10.56 mm